A mixed list of measured activities; the numbers were collected in NIAID ChemDB.

Common to all: tests in culture; species: HIV-1

Two numbers with a dash give a range or band. ECn is the concentration giving n% inhibition of infection, replication or growth. An empty or dashed field is not shown. Conditions beyond the fields shown may differ between rows.

smiles,conditions,read by,changes,strain,measure,cell line,value
Cc1cn([C@@H]2O[C@@H]3CN[C@@]4(OCC(C)(C)C)CS(=O)(=O)O[C@@]34[C@H]2O[Si](C)(C)C(C)(C)C)c(=O)[nH]c1=O,,,,IIIB,EC50,MT-4,<10 µM
CC(C)(C)NC(=O)[C@@H]1CN(Cc2cccnc2)CCN1C[C@@H](O)C[C@@H](Cc1ccccc1)C(=O)N[C@H]1c2ccccc2C[C@H]1O,,p24 / ELISA,,LAI,EC50,HEK293T,0.0013–0.0032 µM
O=C1CC2CCC1C1C(=O)NC(=O)C21,,MTT,,,EC50,MT-4,>100 µM
CN1N=C(N)c2cn([C@@H]3O[C@H](COP(=O)(O)O)[C@@H](O)[C@H]3O)c3ncnc1c23,,cytopathic effect / XTT,,C,EC50,CEM + CEM-SS,0.06 µM
CCCCCCCCCCCCCCC(=O)Oc1ccc(OP(=O)(OCc2ccc(OC(=O)CC)cc2)OP(=O)(O)OP(=O)(O)OC[C@@H]2C=C[C@H](n3cc(C)c(=O)[nH]c3=O)O2)cc1,,syncytia / visual reading,,IIIB,EC50,CEM,0.24 µM
COc1ccc(NC(=O)Nc2nc(NCCc3ccc(OC)c(OC)c3)nc(Oc3cc(=O)oc4ccccc34)n2)cc1,,MTT,,IIIB,EC50,MT-4,>61.6 µg/mL
C=CCO[C@]12CS(=O)(=O)O[C@@]13[C@@H](CN2)O[C@@H](n1cc(C)c(=O)[nH]c1=O)[C@@H]3O[Si](C)(C)C(C)(C)C,,,,IIIB,EC50,CEM,15 µM
Cc1ncc(-c2ccc(OC3CCCC3)cn2)c(N2CCC(C)(C)CC2)c1[C@H](OC(C)(C)C)C(=O)O,,luminescence,,NL4-3,EC50,MT-2,0.0063 µM
CCOC(=O)CNc1nc(NC(=O)Nc2ccc(OC)cc2)nc(Oc2cc(=O)oc3ccccc23)n1,,MTT,,IIIB,EC50,MT-4,>85.9 µg/mL
CSCCC(c1nnc(SCc2ccc(Br)cc2)o1)N(Cc1ccc(Br)cc1)S(=O)(=O)c1ccc(C)cc1,,,,IIIB,EC50,MT-4,>125 µg/mL
COc1ccc(CCNc2nc(NC(=O)Nc3ccc(F)cc3)nc(Oc3cc(=O)oc4ccccc34)n2)cc1OC,,MTT,,IIIB,EC50,MT-4,>19.75 µg/mL
CCCCCCCCCCCCCCC(=O)Oc1ccc(COP(=O)(Oc2ccc(OC(=O)CCCC(=O)OCCOCCOCCOC)cc2)OP(=O)(O)OP(=O)(O)OC[C@@H]2C=C[C@H](n3cc(C)c(=O)[nH]c3=O)O2)cc1,,syncytia / visual reading,,IIIB,EC50,CEM,0.31 µM
CC(C)CN(C[C@@H](O)[C@@H]1CCCCCCCCOc2c(O)cccc2C(=O)N1)S(=O)(=O)c1ccc2c(c1)OCO2,,cytopathic effect / MTT,,LAI,EC75,MT-2,>1 µM
Cc1ccc(S(=O)(=O)NC(Cc2ccccc2)c2nnc(SCc3ccccc3)o2)cc1,,,,IIIB,EC50,MT-4,>11.67 µg/mL
Cc1cc(C)c(CS(=O)c2cccc[n+]2[O-])c(C)c1,,syncytia,RT-K103N,IIIB,EC50,CEM,11 µg/mL
CCCOCCOc1ccc(-c2cnc(C)c([C@H](OC(C)(C)C)C(=O)O)c2N2CCC(C)(C)CC2)nc1,,luminescence,,NL4-3,EC50,MT-2,0.0019 µM
Cc1ccc(C)c(CS(=O)c2ccc(Cl)c[n+]2[O-])c1,,syncytia,,IIIB,EC50,CEM,2 µg/mL
CCS[C@]12CS(=O)(=O)O[C@@]13[C@@H](CN2)O[C@@H](n1cc(C)c(=O)[nH]c1=O)[C@@H]3O[Si](C)(C)C(C)(C)C,,,,IIIB,EC50,CEM,32.5 µM
Cc1ccc(S(=O)(=O)NC(Cc2ccccc2)c2nnc(SCc3ccc(Cl)cc3)o2)cc1,,,,IIIB,EC50,MT-4,>99.4 µg/mL
Nc1nc2c(ncn2[C@H]2CC[C@@H](CO)O2)c(=O)[nH]1,,cytopathic effect / trypan blue,,IIIB Laboratory strain,EC50,MT-4,7.6 µM
C[C@H]1CC[C@@H]2C(C)(C)[C@H](O)CC[C@]2(C)[C@@]12Cc1c(O)cc3c(c1O2)CN(CCCC(=O)O)C3=O,pseudotyped,luciferase / luminescence,,,EC50,SupT1,59.5 µM
Cc1ccc(C)c(CS(=O)(=O)c2cccc[n+]2[O-])c1,,syncytia,RT-E138K,IIIB,EC50,CEM,12 µg/mL
CC(C)=CCC/C(C)=C/CC/C(C)=C/Cc1c(O)cc2c(c1O)CNC2=O,pseudotyped,luciferase / luminescence,,,EC50,SupT1,17.7 µM
CSCCC(NS(=O)(=O)c1ccc(Cl)cc1)c1nnc(SCc2ccc(Br)cc2)o1,,,,IIIB,EC50,MT-4,>12.3 µg/mL
Cc1cn(C2OC(CO[Si](C)(C)C(C)(C)C)C3(OS(=O)(=O)C=C3N)C2O[Si](C)(C)C(C)(C)C)c(=O)n(CC2CO2)c1=O,,trypan blue,,IIIB,EC50,MT-4,0.11 µM
C=C(C)[C@@H]1CC[C@]2(C(=O)NCCCCCCCC(=O)N[C@@H](CC(C)C)[C@@H](O)CC(=O)O)CC[C@]3(C)[C@H](CC[C@@H]4[C@@]5(C)CC[C@H](O)C(C)(C)[C@@H]5CC[C@]43C)[C@@H]12,,cytopathic effect / MTT,,IIIB,EC50,C8166,0.27 µM
COc1ccc(NC(=S)Nc2nc(NCCc3ccc(OC)c(OC)c3)nc(Oc3cc(=O)oc4ccccc34)n2)cc1,,MTT,,IIIB,EC50,MT-4,>56.45 µg/mL
CCCNc1nc(N)nc2c1ncn2[C@H]1C=C[C@@H](CO)C1,,,,,EC50,MT-2,16 µM
O=c1oc(C(CC2CC2)CC2CC2)cc(O)c1C(c1cccc(NS(=O)(=O)c2ccccn2)c1)C1CC1,,p24,,IIIB,EC50,H9,1–3 µM
O=C1CC2CCC1C1C(=O)N(CCCCN3CCN(c4ncccn4)CC3)C(=O)C21,,MTT,,,EC50,MT-4,>100 µM
CCOc1ccc(NC(=S)Nc2nc(NCCc3ccc(OC)c(OC)c3)nc(Oc3cc(=O)oc4ccccc34)n2)cc1,,MTT,,IIIB,EC50,MT-4,>66.05 µg/mL
Cc1cn(C2OC(CO[Si](C)(C)C(C)(C)C)C3(OS(=O)(=O)C=C3N)C2O[Si](C)(C)C(C)(C)C)c(=O)n(CCCNC(=O)c2ccc(C(=O)c3ccccc3)cc2)c1=O,,syncytia,,IIIB,EC50,CEM,0.16 µM
Nc1ccn([C@@H]2O[C@H](CO)C=C2F)c(=O)n1,,cytopathic effect / MTT,RT-M184V,,EC50,,<1.8 µM
Cc1ccc(S(=O)(=O)NC(C)c2nnc(SCc3ccc(Cl)cc3)o2)cc1,,,,IIIB,EC50,MT-4,>27.93 µg/mL
CCOC(=O)CNc1nc(Nc2ccc(C)cc2)nc(Oc2cc(=O)oc3ccccc23)n1,,MTT,RT-resistant RES056 (K103N + Y181C),RES056,EC50,,>45.53 µg/mL
CC(C)OC(=O)c1cc(NC(=S)OC(C)C)ccc1Cl,,syncytia,RT-E138K,IIIB,EC50,CEM,1.24 µM
Cc1ncc(-c2ccc(OCC3(C)CCC3)nc2)c(N2CCC(C)(C)CC2)c1[C@H](OC(C)(C)C)C(=O)O,,luminescence,,NL4-3,EC50,MT-2,0.0059 µM
CCCCO[C@]12CS(=O)(=O)O[C@@]13[C@@H](CN2)O[C@@H](n1cc(C)c(=O)[nH]c1=O)[C@@H]3O,,,,IIIB,EC50,CEM,>125 µM
O=C(O)c1cc(C(=C(c2cc(Cl)c(O)c(C(=O)O)c2)c2cc(Cl)c(O)c(C(=O)O)c2)c2cc(Cl)c(O)c(C(=O)O)c2)cc(Cl)c1O,,cytopathic effect / XTT,,IIIB,EC50,CEM,68 µM
O=C1CC2CCC1C1C(=O)N(CCCN3CCN(c4ccccc4O)CC3)C(=O)C21,,MTT,,,EC50,MT-4,>100 µM
CCOCCCOc1ccc(-c2cnc(C)c([C@H](OC(C)(C)C)C(=O)O)c2N2CCC(C)(C)CC2)nc1,,luminescence,,NL4-3,EC50,MT-2,0.0023 µM
CCCCC(=O)Oc1ccc(COP(=O)(Oc2ccc(OC(=O)CCC(=O)OCCOCCOCCOC)cc2)OP(=O)(O)OP(=O)(O)OC[C@@H]2C=C[C@H](n3cc(C)c(=O)[nH]c3=O)O2)cc1,,syncytia / visual reading,,IIIB,EC50,CEM/TK-,16 µM
COc1ccc(CCNc2nc(NC(=S)Nc3ccc4ccccc4c3)nc(Oc3cc(=O)oc4ccccc34)n2)cc1OC,,MTT,,IIIB,EC50,MT-4,>54.6 µg/mL
COc1ccc(OCCN(C)c2ccc(-c3cnc(C)c([C@H](OC(C)(C)C)C(=O)O)c3N3CCC(C)(C)CC3)nc2)cc1,,luminescence,,NL4-3,EC50,MT-2,0.0006 µM
COc1ccccc1N1CCN(CCCCN2C(=O)C3C4CCC(C(=O)C4)C3C2=O)CC1,,MTT,,,EC50,MT-4,>100 µM
Cc1cn(C2OC(CO[Si](C)(C)C(C)(C)C)C3(OS(=O)(=O)C=C3N)C2O[Si](C)(C)C(C)(C)C)c(=O)n(CCCNC(=O)c2ccc(N=[N+]=[N-])cc2O)c1=O,,trypan blue,,IIIB,EC50,MT-4,0.68 µM
Cc1cn([C@H]2C[C@H](N=[N+]=[N-])[C@@H](CO)O2)c(=O)[nH]c1=O,,syncytia,,A17,EC50,C8166,0.00763 µM
CO[C@]12CS(=O)(=O)O[C@@]13[C@@H](CN2)O[C@@H](n1cc(C)c(=O)[nH]c1=O)[C@@H]3O,,,,IIIB,EC50,MT-4,98.9 µM
O=C(O)c1cc(Cc2cc(Cl)c(O)c(C(=O)O)c2)cc(Cl)c1O,,cytopathic effect / XTT,,IIIB,EC50,CEM,117 µM
Cc1occc1C(=S)Nc1ccc(Cl)c(/C=N/OC(C)(C)C)c1,,syncytia,RT-E138K,IIIB,EC50,CEM,0.214 µM
CSCCC(NS(=O)(=O)c1ccc(C)cc1)c1nnc(SCc2ccc(Cl)cc2)o1,,,,IIIB,EC50,MT-4,>13 µg/mL
CC(C)=CCOc1ccc(-c2cnc(C)c([C@H](OC(C)(C)C)C(=O)O)c2N2CCC(C)(C)CC2)nc1,,luminescence,,NL4-3,EC50,MT-2,0.0009 µM
COc1ccc(CCNc2nc(NC(=S)Nc3cccc(C)c3)nc(Oc3cc(=O)oc4ccccc34)n2)cc1OC,,MTT,,IIIB,EC50,MT-4,>61.2 µg/mL
C=CCN(CC=C)C(=S)N=Nc1c(O)n(CC=C)c2ccccc12,chronic infection,plaque count,,,EC50,H9/HIV-1 + H9,2 µg/mL
Cc1ccccc1N1CCN(CCCN2C(=O)C3C4CCC(C(=O)C4)C3C2=O)CC1,,MTT,,,EC50,MT-4,>100 µM
CSCCC(NS(=O)(=O)c1ccc(C)cc1)c1nnc(SCc2ccccc2)o1,,,,IIIB,EC50,MT-4,>30.48 µg/mL
CCCCCCCCCCCCCCC(=O)Oc1ccc(OP(=O)(OCc2ccc(OC(=O)CCCCCC)cc2)OP(=O)(O)OP(=O)(O)OC[C@@H]2C=C[C@H](n3cc(C)c(=O)[nH]c3=O)O2)cc1,,syncytia / visual reading,,IIIB,EC50,CEM,0.15 µM
CC(C)=CCC/C(C)=C/CC/C(C)=C/Cc1c(O)cc2c(c1O)CN(CCO)C2=O,pseudotyped,luciferase / luminescence,,,EC50,SupT1,9.3 µM
Cc1cn([C@@H]2O[C@@H]3CN[C@@]4(OCCO)CS(=O)(=O)O[C@@]34[C@H]2O[Si](C)(C)C(C)(C)C)c(=O)[nH]c1=O,,,,IIIB,EC50,MT-4,9.5 µM
CC(NS(=O)(=O)c1ccc(Cl)cc1)c1nnc(SCc2ccc(Cl)cc2)o1,,,,IIIB,EC50,MT-4,>14.08 µg/mL